Measured values from several laboratories, pooled; numbers as filed in NIAID ChemDB.

Common to all: cytotoxicity tests; cells: CEM; measure: CC50

CCn is the concentration with n% toxicity to the cells. Blank or dashed fields: not listed here. Neighbouring rows are from separate reports.

| smiles | read by | result |
|---|---|---|
| O=c1ccn([C@@H]2C[C@H](CO)C[C@H]2CO)c(=O)[nH]1 | - | >200 µg/mL |
| O=C1c2ccccc2C(=O)N1C/C=C\Cn1cc(F)c(=O)[nH]c1=O | cell count | >50 µM |
| O=C(O)C[C@H](Cc1ccccc1)NC(=O)c1ccccc1SSc1ccccc1C(=O)N[C@H](CC(=O)O)Cc1ccccc1 | - | 67 µM |
| Cc1cccn2c(C3OCCO3)cnc12 | - | ≥100 µM |
| CC(C)OC(=O)[C@H](C)NP(=O)(OC[C@H]1O[C@@H](n2ccc(N)nc2=O)C(F)(F)C1(F)F)Oc1ccccc1 | - | >100 µM |
| Nc1ccn([C@@H]2S[C@H](CO)C=C2F)c(=O)n1 | - | >100 µM |
| O=C(NCCc1ccccc1)c1cc2cc3c(cc2[nH]1)OCO3 | XTT | >200 µM |
| O=c1ccn([C@H]2CC[C@@H](CO)O2)c(=O)[nH]1 | - | >250 µM |
| CC[C@@H](C)[C@@H](NC(=O)c1ccccc1SSc1ccccc1C(=O)N[C@@H](C(=O)O)[C@H](C)CC)C(=O)O | - | 113 µM |
| N#C/C(=C\c1ccc(O)c(O)c1)C(=O)Nc1cccc(C(=O)O)c1 | - | 36.5 µM |
| O=C(NCc1ccccc1)c1cc2cc(O)c(O)cc2[nH]1 | XTT | 29 µM |
| N#C/C(=C\c1ccc(O)c(O)c1)C(=S)NCc1ccccc1 | - | 31.7 µM |
| CC(C)C[C@@H](CO)NC(=O)c1ccccc1SSc1ccccc1C(=O)N[C@H](CO)CC(C)C | - | 12.4 µM |
| Nc1nc(N)c2ncn(CC3(CO)CC3CO)c2n1 | - | >100 µg/mL |
| Cc1cccc2c1CP(=O)(OC[C@@H]1CC[C@H](n3ccc(=O)[nH]c3=O)O1)CC2 | - | 104 µM |
| COc1ccc(NC(=O)/C(C#N)=C/c2ccc(O)c(O)c2)cc1O | - | 10.9 µM |
| CCCCCCCCCC(=O)Oc1ccc(COP(=O)(OCc2ccc(OC(=O)CCCCCCCCC)cc2)OP(=O)([O-])OC[C@@H]2C=C[C@H](n3ccc(=O)[nH]c3=O)O2)cc1 | - | 95 µM |
| CCCCCCCC/C=C\CCCCCCCC(=O)Oc1ccc(COP(=O)(OCc2ccc(OC(=O)CCCCCCC/C=C\CCCCCCCC)cc2)OP(=O)(O)OC[C@@H]2C=C[C@H](n3cc(C)c(=O)[nH]c3=O)O2)cc1 | - | 100 µM |
| O=C(NCCCCNC(=O)c1cc2cc3c(cc2[nH]1)OCO3)c1cc2cc3c(cc2[nH]1)OCO3 | XTT | >200 µM |
| Cc1ccc(C)c(CS(=O)(=O)c2ccccn2)c1 | - | 42 µg/mL |
| Nc1nc2c(ncn2[C@@H]2O[C@H](CO)C(F)(F)C2(F)F)c(=O)[nH]1 | - | >100 µM |
| O=C(NCCCNC(=O)c1cc2cc3c(cc2[nH]1)OCO3)c1cc2cc3c(cc2[nH]1)OCO3 | XTT | >200 µM |
| CC(C)(C)C1CCC2(CC1)CC(O)=C(Sc1ccccc1)C(=O)O2 | - | 5 µM |
| Oc1cccc(C2SCc3nc4ccccc4n32)c1 | - | >127 µM |
| Nc1ccn([C@@H]2O[C@H](CO)C=C2F)c(=O)n1 | - | 35.3 µM |
| Nc1nc2c(ncn2[C@H]2C=C[C@@H](CO)C2)c(=O)[nH]1 | - | 60.5 µg/mL |
| Cc1cccn2c(C3SCCS3)cnc12 | - | 29 µM |
| CCCCC(=O)Oc1ccc(COP(=O)(OCc2ccc(OC(=O)CCCC)cc2)OP(=O)(O)OC[C@@H]2C=C[C@H](n3cc(C)c(=O)[nH]c3=O)O2)cc1 | - | 80 µM |
| Cc1cccn2c(C3OCCS3)cnc12 | - | ≥100 µM |
| CCCCCCC(=O)Oc1ccc(COP(=O)(OCc2ccc(OC(=O)CCCCCC)cc2)OP(=O)([O-])OC[C@@H]2C=C[C@H](n3ccc(=O)[nH]c3=O)O2)cc1 | - | 109 µM |
| CC(C)Nc1ncnc2c1ncn2C1C[C@H](CO)[C@@H](CO)C1 | - | >200 µg/mL |
| S=C(Cc1ccccn1)NCCc1ccccc1 | - | >200 µM |
| CC(C)(C)[C@H](NC(=O)c1ccccc1SSc1ccccc1C(=O)N[C@H](C(=O)O)C(C)(C)C)C(=O)O | - | >100 µM |
| Cc1cn(CC2(CO)CC2CO)c(=O)[nH]c1=O | - | >100 µg/mL |
| C/C(=N\NC(=O)CN1c2c(-c3ccccc3)n[nH]c2-c2ccccc2S1(=O)=O)c1cc(C)cs1 | MTS | 18.3 µM |
| O=C(N[C@H](CO)c1ccccc1)c1ccccc1SSc1ccccc1C(=O)N[C@H](CO)c1ccccc1 | - | 21 µM |
| O=C(NCc1ccccc1)c1cc2cc3c(cc2[nH]1)OCO3 | XTT | >200 µM |
| O=C1c2ccccc2C(=O)N1C/C=C/Cn1ccc(=O)[nH]c1=O | cell count | >50 µM |
| O=C1CSC(c2c(Cl)cccc2Cl)N1Cc1cccs1 | - | 41.54 µM |
| N#C/C(=C\c1cc(O)c(O)c([N+](=O)[O-])c1)C(=O)NCCCNC(=O)/C(C#N)=C/c1cc(O)c(O)c([N+](=O)[O-])c1 | - | 72.2 µM |
| C/C(=N\NC(=O)CN1c2c(-c3ccccc3)n[nH]c2-c2ccccc2S1(=O)=O)c1ccc(Cl)s1 | MTS | 8.4 µM |
| O=C1c2ccccc2C(=O)N1C/C=C/Cn1cnc2c(Cl)ncnc21 | cell count | >50 µM |
| Cc1c(N)nc(N)nc1OCCOCP(=O)(O)O | microscopy | 10 µM |
| N#C/C(=C\c1ccc(O)c(O)c1)C(=O)c1ccc(O)c(O)c1 | - | 36.2 µM |
| O=C1c2ccccc2C(=O)N1C/C=C/Cn1cc(C(F)(F)F)c(=O)[nH]c1=O | cell count | >50 µM |
| CC(C)OC(=O)[C@H](C)NP(=O)(OC[C@H]1O[C@@H](n2cnc3c(=O)[nH]c(N)nc32)C(F)(F)C1(F)F)Oc1ccccc1 | - | >100 µM |
| C[C@]1(CO)[C@H](Cn2cnc3c(=O)[nH]c(N)nc32)C1(F)F | - | >100 µM |
| O=c1[nH]c(=O)n([C@@H]2C[C@H](CO)C[C@H]2CO)cc1I | - | >200 µg/mL |
| Cn1cccc1CN1C(=O)CSC1c1c(F)cccc1Cl | - | 68.1 µM |
| Cc1ccc(C(C)S(=O)(=O)c2c(C)ccc[n+]2[O-])c(C)c1 | - | >100 µg/mL |
| N#C/C(=C\c1ccccc1)S(=O)(=O)/C(C#N)=C/c1ccc(O)c(O)c1 | - | 25.7 µM |
| Nc1ccn([C@H]2S[C@@H](CO)C=C2F)c(=O)n1 | - | >100 µM |
| Nc1ncnc2c1ncn2C/C=C\CN1C(=O)c2ccccc2C1=O | cell count | >50 µM |
| N#C/C(=C\c1ccc(O)c(O)c1)C(=O)NCCCNC(=O)/C(C#N)=C/c1ccc(O)c(O)c1 | - | 40.9 µM |
| CCCCCCCCCC(=O)Oc1ccc(COP(=O)(OCCC#N)OP(=O)(O)OC[C@@H]2C=C[C@H](n3cc(C)c(=O)[nH]c3=O)O2)cc1 | - | 86 µM |
| C[C@]1(Cn2cnc3c(=O)[nH]c(N)nc32)[C@H](COCP(=O)(O)O)C1(F)F | - | >100 µM |
| Nc1ccn([C@@H]2O[C@@H](CO)[C@H](O)C2(F)F)c(=O)n1 | - | >100 µM |
| O=C1O[C@](C#CC2CC2)(C(F)(F)F)c2cc(Cl)ccc2N1CN1CCN(c2ccccc2)CC1 | - | >10 µM |
| N#C/C(=C\c1ccc(O)c(O)c1)C(=O)NCc1ccccc1 | - | 33.7 µM |
| O=[N+]([O-])c1ccccc1C1SCc2nc3ccccc3n21 | - | 37.2 µM |
| Cc1ccc(C)c(CSc2c(Cl)ccc[n+]2[O-])c1 | - | 38 µg/mL |
| FC(F)(F)[C@@]1(C#CC2CC2)OC(=S)Nc2ccc(Cl)cc21 | - | >10 µM |
| Cc1ccc(C)c(C(C)S(=O)(=O)c2c(C)ccc[n+]2[O-])c1 | - | 36 µg/mL |
| CCCCCCC(=O)Oc1ccc(COP(=O)(OCc2ccc(OC(=O)CCCCCC)cc2)OP(=O)([O-])OC[C@@H]2CC[C@H](n3ccc(=O)[nH]c3=O)O2)cc1 | - | 124 µM |
| Cc1cn([C@H]2C=C[C@@H](CO)O2)c(=O)[nH]c1=O | - | 174 µM |
| C/C(=N\NC(=O)CN1c2c(-c3ccccc3)n[nH]c2-c2ccccc2S1(=O)=O)c1ccc2ccccc2c1 | MTS | 24.2 µM |
| Cn1c2ccccc2c(=O)c2c(O)cccc21 | - | 5.6 µg/mL |

Again, the opening 3 rows:

smiles	read by	result
O=c1ccn([C@@H]2C[C@H](CO)C[C@H]2CO)c(=O)[nH]1	-	>200 µg/mL
O=C1c2ccccc2C(=O)N1C/C=C\Cn1cc(F)c(=O)[nH]c1=O	cell count	>50 µM
O=C(O)C[C@H](Cc1ccccc1)NC(=O)c1ccccc1SSc1ccccc1C(=O)N[C@H](CC(=O)O)Cc1ccccc1	-	67 µM